The structures appear in SMILES notation.

By UniProt entry, the sequences of proteins in these tests, tags left out.
UniProt Q72874, entry or part of it Q7K: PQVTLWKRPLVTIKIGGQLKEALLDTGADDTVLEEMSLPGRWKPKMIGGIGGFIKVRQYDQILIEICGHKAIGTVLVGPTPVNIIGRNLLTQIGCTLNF

The values that follow come from ChEMBL document CHEMBL1143396, “Additivity in the analysis and design of HIV protease inhibitors” (J Med Chem, 2009).

The target of this assay is Human immunodeficiency virus type 1 protease (Human immunodeficiency virus 1, UniProt Q72874, Q7K). In words: Inhibition of HIV1 protease Q7K mutant by FRET method. Summed up:
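Wild-type HIV-1 protease (Q7K), desalted into 20 mM sodium acetate pH 5, apparent concentration around 50 nM by UV at 280 nm. Enzyme preincubated with inhibitor (DMSO stocks) or DMSO 20–30 min at room temperature. Read ex 340/em 490 nm, 30 °C, about 10 min.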

Take `CNC(=O)CCC(=O)N[C@@H](Cc1ccccc1)[C@H](O)CN(CC1CC1)S(=O)(=O)c1ccco1`: the Ki by setting is: (read-out: Ki) 58 nM; (read-out: pKi (converted)) 57.5 nM.

With `CNC(=O)CCC(=O)N[C@@H](Cc1ccccc1)[C@H](O)CN(CC1CC1)S(=O)(=O)c1cccc(OC)c1`, the Ki is 23.9 nM (read-out: Ki) and 24 nM (read-out: pKi (converted)).
